PubChem BioAssay AID504761, Drosophila RNAi Screening Center | 2011
Screen: 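Insect host genes that dengue virus relies on to spread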 (primary screen). System: D.Mel-2 cells from Drosophila. Reagents: long dsRNA against Drosophila genes. Challenge: infection with dengue virus type 2; dose and infection time not stated. Measured: 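Per well on two replicate plates, imaging gave the percent of cells positive for viral envelope protein, ranked by infection, and a nuclear count of cells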. Direction: infection score: higher = more virus-infected cells; cell count: higher = more cells in the well. Hit rule: 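Low infection ranks in the two replicates (chance level up to 0.065) followed by a retest with a 1.5-fold or larger significant decrease, p below 0.05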. Meaning of the calls: active = confirmed: knock-down lowers infection; inactive = not picked or not confirmed.
In all, the deposit lists about 22,000 reagents; this is an unselected part of those that have a named target and a result. In the full data, 116 (0.52%) were called active. 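Calls depend on retest data that are not deposited; infection was ranked per plate without normalising between plates; the unit of the infection score is not given.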 Raw values vary from plate to plate and are shown uncorrected. The numbers tell different reagents against one gene apart. A plus sign joins genes that one reagent is predicted to hit. Reagent sequences are not shown. The record does not give: the amount of reagent, the time to read-out.

The first 6 records as a preview:
| target gene | reagent | infection score, replicate 1 | infection score, replicate 2 | cell count, replicate 1 | cell count, replicate 2 | activity call |
| --- | --- | --- | --- | --- | --- | --- |
| Hydr1 (alpha/beta hydrolase 1) | 1 | 4.91 | 8.75 | 6803 | 6786 | inactive |
| Sur (Sulfonylurea receptor) | 1 | 13.9 | 5.69 | 6500 | 6377 | inactive |
| Sur (Sulfonylurea receptor) | 2 | 26.7 | 17.3 | 6074 | 5952 | inactive |
| CG9643 | 1 | 9.77 | 4.16 | 6507 | 6474 | inactive |
| CG9643 | 2 | 7.23 | 22.5 | 6290 | 5764 | inactive |
| CG3419 (retired record) | 1 | 3.6 | 11.8 | 1748 | 6650 | inactive |

Main list, from the first entry:
| target gene | reagent | infection score, replicate 1 | infection score, replicate 2 | cell count, replicate 1 | cell count, replicate 2 | activity call |
| --- | --- | --- | --- | --- | --- | --- |
| Hydr1 (alpha/beta hydrolase 1) | 1 | 4.91 | 8.75 | 6803 | 6786 | inactive |
| Sur (Sulfonylurea receptor) | 1 | 13.9 | 5.69 | 6500 | 6377 | inactive |
| Sur (Sulfonylurea receptor) | 2 | 26.7 | 17.3 | 6074 | 5952 | inactive |
| CG9643 | 1 | 9.77 | 4.16 | 6507 | 6474 | inactive |
| CG9643 | 2 | 7.23 | 22.5 | 6290 | 5764 | inactive |
| CG3419 (retired record) | 1 | 3.6 | 11.8 | 1748 | 6650 | inactive |
| CG3419 (retired record) | 2 | 6.78 | 4.54 | 5680 | 6609 | inactive |
| prom (prominin) | 1 | 3.06 | 4.52 | 6037 | 6658 | inactive |
| prom (prominin) | 2 | 1.02 | 1.63 | 6154 | 7415 | inactive |
| prom (prominin) | 3 | 6.39 | 0.52 | 6765 | 6786 | inactive |
| prom (prominin) | 4 | 3.5 | 7.61 | 6227 | 6291 | inactive |
| prom (prominin) | 5 | 3.99 | 2.5 | 6697 | 3563 | inactive |
| prom (prominin) | 6 | 5.24 | 11.8 | 7178 | 6095 | inactive |
| BthD (BthD selenoprotein) | 1 | 3.74 | 7.01 | 6438 | 6381 | inactive |
| BthD (BthD selenoprotein) | 2 | 12.9 | 4.18 | 6237 | 6558 | inactive |
| mgr (merry-go-round) | 1 | 8.62 | 5.29 | 6545 | 6500 | inactive |
| CG15747 | 1 | 23.1 | 15.5 | 4995 | 5056 | inactive |
| CG15747 | 2 | 15.6 | 9.5 | 1922 | 1864 | inactive |
| CG7379 | 1 | 2.33 | 11.7 | 6101 | 6361 | inactive |
| CG7379 | 2 | 5.12 | 1.06 | 5943 | 6019 | inactive |
| Actbeta (Activin-beta) | 1 | 0.46 | 0.19 | 6124 | 5878 | inactive |
| Actbeta (Activin-beta) | 2 | 17.4 | 10.9 | 4873 | 5187 | inactive |
| Rab8 | 1 | 4.67 | 9.11 | 6296 | 6289 | inactive |
| Vml (Vitelline membrane-like) | 1 | 3.24 | 0.89 | 6355 | 6502 | inactive |
| Vml (Vitelline membrane-like) | 2 | 0.9 | 3.87 | 6354 | 6130 | inactive |
| Vml (Vitelline membrane-like) | 3 | 0.2 | – | 492 | 453 | inactive |
| Vml (Vitelline membrane-like) | 4 | – | 20.3 | 393 | 5410 | inactive |
| CG2865 | 1 | 1.59 | 1.5 | 6607 | 6620 | inactive |
| CG2865 | 2 | 14.9 | 4.23 | 3147 | 6451 | inactive |
| CG2865 | 3 | 16.2 | 21.4 | 2915 | 6971 | inactive |
| slp2 (sloppy paired 2) | 1 | 3.86 | 2.22 | 6355 | 6982 | inactive |
| slp2 (sloppy paired 2) | 2 | 5.94 | 5.08 | 6588 | 5628 | inactive |
| CG31957 | 1 | 3.36 | 1.9 | 6161 | 5197 | inactive |
| Cln3 | 1 | 2.38 | 3.77 | 6640 | 6764 | inactive |
| Cln3 | 2 | 2.11 | 5.73 | 6387 | 6390 | inactive |
| CG8160 | 1 | 12.3 | 18.3 | 5948 | 5319 | inactive |
| CG8160 | 2 | 5.51 | 10.3 | 6226 | 6609 | inactive |
| CG8160 | 3 | 5.54 | 5.23 | 6284 | 6616 | inactive |
| CG31922 | 1 | 1.79 | 4.57 | 5977 | 6865 | inactive |
| CG31922 | 2 | 0.73 | 1.11 | 6334 | 5948 | inactive |
| CG11396 | 1 | 4.92 | 5.41 | 6317 | 6290 | inactive |
| TM9SF2 (Transmembrane 9 superfamily protein member 2) | 1 | 21.5 | 23.1 | 6308 | 5700 | inactive |
| CG10205 | 1 | 13.6 | 11.9 | 3820 | 5839 | inactive |
| CG17707 | 1 | 9.43 | 2.27 | 5852 | 5806 | inactive |
| CG11300 | 1 | 12.9 | 21 | 6002 | 6076 | inactive |
| Mst84Dd (Male-specific RNA 84Dd) | 1 | 4.02 | 10.1 | 6410 | 1965 | inactive |
| Mst84Dd (Male-specific RNA 84Dd) | 2 | 16.3 | 5.22 | 6139 | 6765 | inactive |
| Kank | 1 | 0.14 | 1.13 | 6404 | 6118 | inactive |
| Kank | 2 | 4.91 | 3.91 | 6478 | 6756 | inactive |
| emp (epithelial membrane protein) | 1 | 0.47 | 0.15 | 6365 | 5811 | inactive |
| emp (epithelial membrane protein) | 2 | 5.69 | 49.3 | 6375 | 5084 | inactive |
| Pomp | 1 | 13.2 | 5.35 | 1507 | 2167 | inactive |
| Pomp | 2 | 10.7 | 11.4 | 6413 | 6258 | inactive |
| CG15876 | 1 | 5.13 | 2.07 | 5559 | 6243 | inactive |
| CG15876 | 2 | 10.9 | 16.6 | 6783 | 6196 | inactive |
| CG13716 | 1 | 14.7 | 12.7 | 6032 | 5943 | inactive |
| CG13716 | 2 | 2.21 | 8.26 | 6115 | 6371 | inactive |
| EMC7 (ER membrane protein complex subunit 7) | 1 | 11.4 | 11.8 | 6559 | 6587 | inactive |
| CG18011 | 1 | 9.47 | 7.75 | 5989 | 6413 | inactive |
| CG18011 | 2 | 20.5 | 12.6 | 6345 | 6260 | inactive |
| alphaCOP (Coat Protein (coatomer) alpha) | 1 | 9.28 | 15.6 | 1325 | 2418 | inactive |
| Mics1 (Mitochondrial morphology and cristae structure 1) | 1 | 5.27 | 4.07 | 6548 | 6343 | inactive |
| CG15118 | 1 | 3.64 | 6.17 | 6737 | 6399 | inactive |
| CG4968 | 1 | 4.98 | 3.62 | 6712 | 6910 | inactive |
| CG4968 | 2 | 18.9 | 9.76 | 6440 | 5934 | inactive |
| brwl (brickwall) | 1 | 2.84 | 1.73 | 5324 | 5492 | inactive |
| brwl (brickwall) | 2 | 10.9 | 4.05 | 6871 | 6143 | inactive |
| ida (imaginal discs arrested) | 1 | 2.37 | 2.47 | 5224 | 5187 | inactive |
| Gr22a (Gustatory receptor 22a) | 1 | 1.72 | 16.8 | 5872 | 5084 | inactive |
| Gr22a (Gustatory receptor 22a) | 2 | 11.2 | 11.2 | 7141 | 6459 | inactive |
| a5 (antennal protein 5) | 1 | 1.34 | 6.59 | 6469 | 6953 | inactive |
| sordd2 + sordd1 | 1 | 2.7 | 1.8 | 6619 | 6503 | inactive |
| sordd2 + sordd1 | 2 | 17.1 | 9.29 | 5695 | 6264 | inactive |
| CG6028 | 1 | 4.23 | 7.2 | 6339 | 6860 | inactive |
